Pooled drug test results. Numbers come from NIAID ChemDB, via PubChem.

Common to all: enzyme or target tests; organism: HIV-1; protein: Reverse transcriptase; read-out: IC50

Lines come from different laboratories, so protocols vary. Blank or dashed fields: not listed here. ICn: concentration for n% inhibition.

SMILES | strain | changes | method | value
CC(C)(C)c1ccc(S(=O)(=O)N2CCC(NC(=O)c3cc(O)c(O)c(O)c3)CC2)cc1 | BH10 |  | ELISA / nucleotide incorporation | >71.1 µM
O=C(Nc1cc(-c2ccc3c(c2)CCCC3)[nH]n1)c1ccc(-c2cncnc2)s1 | NL4-3 | K103N | RT activity / nucleotide incorporation / luminescence | 0.38 µM
CC(C)c1c(CO)cn(Cc2ccncc2)c1Sc1cc(Cl)cc(Cl)c1 |  |  | RT activity | 0.2 µM
Cc1ccc(C(=O)N2CCN(C(=O)c3cc(O)c(O)c(O)c3)CC2)cc1 | BH10 |  | ELISA / nucleotide incorporation | >50 µM
CC(C)=CCN(C)C(C)Cn1c(=S)[nH]c2ccccc21 |  |  | RT activity | >100 µg/mL
COC(=O)C1(O)CC(O)C(OC(=O)/C=C/c2ccc(O)c(O)c2)C(OC(=O)/C=C/c2ccc(O)c(O)c2)C1 |  |  | nucleotide incorporation | 94 µM
CC1SC(c2c(F)cccc2F)N(Cc2ccco2)C1=O |  |  | ELISA | >10 µg/mL
Cc1cn([C@H]2C[C@H](N=[N+]=[N-])[C@@H](COP(=O)(O)CP(=O)(O)OP(=O)(O)O)O2)c(=O)[nH]c1=O | IIIB |  | nucleotide incorporation | 4.6 µM
Cc1c(Cc2c(F)cccc2F)nc(SC2CCCC2)[nH]c1=O |  |  |  | 300 µM
O=C1CCSC(c2c(F)cccc2F)N1Cc1ccco1 |  |  | ELISA | <10 µg/mL
CCN1c2ncc(CSc3ccccc3)cc2C(=O)N(C)c2ccc(Cl)nc21 | WT |  | nucleotide incorporation / radiometric | <1 µM
O=C(Nc1cc(-c2ccc3c(c2)CCCC3)[nH]n1)c1ccc(-c2ccncc2)s1 | NL4-3 | WT | RT activity / nucleotide incorporation / luminescence | 0.36 µM
CCc1cc(CCc2nc3c(Cl)ccc(Cl)c3o2)c(=S)[nH]c1C |  | RT-K103N | nucleotide incorporation | 0.14 µM
CCN1c2ncc(CNc3cccc(N)c3)cc2C(=O)N(C)c2ccc(Cl)nc21 | WT |  | nucleotide incorporation / radiometric | <1 µM
Nc1nc(Cl)c2ncn([C@H]3C=C[C@@H](COP(=O)(O)OP(=O)(O)OP(=O)(O)O)C3)c2n1 |  |  | fluorescence | >10 µM
COc1c(O)cc2oc(-c3ccc(O)cc3)cc(=O)c2c1O |  |  | RT activity / absorbance | 345 µM
O=C(/C=C/c1ncc(-c2ccccc2)cn1)Nc1cc(-c2ccc3c(c2)CCCC3)[nH]n1 | NL4-3 | Y181C | RT activity / nucleotide incorporation / luminescence | 0.26 µM
CC(C)=CCN1Cc2cccc3[nH]c(=S)n(c23)C[C@@H]1C |  |  | nucleotide incorporation | 8 µM
COc1cc(O)c2c(=O)cc(-c3cc(OC)c(OC)c(OC)c3OC)oc2c1 |  |  | nucleotide incorporation / radiometric | >200 µg/mL
CCN1c2ncc(COc3cc[n+]([O-])c(C(F)(F)F)c3)cc2C(=O)N(C)c2ccc(Cl)nc21 | WT |  | nucleotide incorporation / radiometric | <1 µM
CN(C)c1ccc(C2SCC(=O)N2c2ccccn2)cc1 |  |  | ELISA | >10 µg/mL
O=C(O)C1=C[C@@H](OC(=O)c2cc(O)c(O)c(O)c2)[C@@H](OC(=O)c2cc(O)c(O)c(O)c2)[C@H](OC(=O)c2cc(O)c(O)c(O)c2)C1 |  |  | nucleotide incorporation | 0.1 µM
Nc1nc2c(ncn2[C@H]2C=C[C@@H](COP([O-])(=S)OP(=O)(O)C(F)(F)P(=O)(O)O)C2)c(=O)[nH]1 |  |  | fluorescence | >10 µM
CN(C)C(=O)N1CCC(NC(=O)c2cc(O)c(O)c(O)c2)CC1 | BH10 |  | ELISA / nucleotide incorporation | >371.1 µM
O=C(O[C@@H]1C[C@](O)(C(=O)O)C[C@@H](O)[C@H]1O)c1cc(O)c(O)c(O)c1 |  |  | nucleotide incorporation | 72.6 µM
O=C(/C=C/c1ccc(O)c(O)c1)O[C@@H]1CC(O)(C(=O)O)C[C@@H](OC(=O)/C=C/c2ccc(O)c(O)c2)C1O |  |  | RT activity / absorbance | 315 µM
Cc1cn([C@H]2C=C[C@@H](COP(=O)(O)OP(=O)(O)OP(=O)(O)O)O2)c(=O)[nH]c1=O |  | RT-V106A | nucleotide incorporation / radiometric | 0.06 µM
CCN1c2ncc(CO)cc2C(=O)N(C)c2ccc(Cl)nc21 |  | RT-Y181C | nucleotide incorporation / radiometric | <1 µM
O=C(OC1[C@H](OC(=O)c2cc(O)c(O)c(O)c2)CC(O)(C(=O)O)C[C@H]1OC(=O)c1cc(O)c(O)c(O)c1)c1cc(O)c(O)c(O)c1 |  |  | nucleotide incorporation | 0.08 µM
Cc1cn([C@H]2CC[C@@H](COP([O-])(=S)OP(=O)(O)C(F)(F)P(O)(O)=S)O2)c(=O)[nH]c1=O |  |  | fluorescence | >0.5 µM
O=C(/C=C/c1ccc(O)c(O)c1)OC1[C@H](O)CC(O)(C(=O)O)C[C@H]1O |  |  | RT activity / absorbance | 387 µM
C=C(CC[C@@H](C)[C@H]1CC[C@@]2(C)[C@@H]3CC[C@H]4[C@](C)(C(=O)O)[C@@H](O)CC[C@@]45C[C@@]35CC[C@]12C)C(C)C |  |  | nucleotide incorporation / radiometric | 43.5 µg/mL
O=C(O)C1=C[C@@H](O)[C@@H](O)[C@H](OC(=O)c2cc(O)c(O)c(O)c2)C1 |  |  | nucleotide incorporation | 92 µM
O=C(NC1CCN(C(=O)c2ccccc2)CC1)c1cc(O)c(O)c(O)c1 | BH10 |  | ELISA / nucleotide incorporation | ≥296 µM
CNc1ccc(Cl)cc1S(=O)(=O)c1ccccc1[N+](=O)[O-] | WT |  |  | 11 µM
O=C(Nc1nnc(-c2ccc3c(c2)CCCC3)o1)C1=COCCO1 | NL4-3 | K103N | RT activity / nucleotide incorporation / luminescence | 2.5 µM
O=C(NC1CCN(S(=O)(=O)c2ccccc2)CC1)c1cc(O)c(O)c(O)c1 | BH10 |  | ELISA / nucleotide incorporation | >305.8 µM
Nc1nc2c(ncn2[C@H]2CC[C@@H](COP(=O)(O)OP(=O)(O)OP(=O)(O)O)O2)c(=O)[nH]1 | WT |  | nucleotide incorporation / radiometric | 0.13 µM
COc1ccc(Oc2ccc(C(=O)O)cc2NC(=O)Nc2c(C)cccc2C)cc1 |  | K103N | scintillation proximity / radiometric | >5 µM
Cc1cn([C@H]2C[C@H](F)[C@@H](COP([O-])(=S)OP(=O)(O)C(F)(F)P(=O)(O)O)O2)c(=O)[nH]c1=O |  |  | fluorescence | >10 µM
COC(=O)C1(O)C[C@@H](OC(=O)/C=C/c2ccc(O)c(O)c2)C(O)[C@H](OC(=O)/C=C/c2ccc(O)c(O)c2)C1 |  |  | RT activity / absorbance | 250 µM
Nc1ccn([C@H]2CC[C@@H](COP(=O)(O)OP(=O)(O)OP(=O)(O)O)O2)c(=O)n1 |  | RT-P225H | nucleotide incorporation / radiometric | 3.1 µM
CCN1c2ncc(CCc3ccccc3)cc2C(=O)Nc2c(C)ccnc21 | WT |  | nucleotide incorporation / radiometric | <1 µM
O=C1CSC(c2c(F)cccc2Cl)N1Cc1ccco1 |  |  | ELISA | >10 µg/mL
O=C(/C=C/c1ncc(-c2cccnc2)cn1)Nc1cc(-c2ccc3c(c2)CCCC3)[nH]n1 | NL4-3 | Y181C | RT activity / nucleotide incorporation / luminescence | 0.21 µM
C#C[C@@]1(COP(=O)(O)OP(=O)(O)OP(=O)(O)O)CC[C@H](n2ccc(N)nc2=O)O1 |  | RT-M184V | nucleotide incorporation / radiometric | 0.2 µM
O=C1CSC(c2cccnc2)N1Cc1ccco1 |  |  | ELISA | >10 µg/mL
Nc1ccn([C@@H]2CS[C@H](COP(=O)(O)OP(=O)(O)C(F)(F)P(=O)(O)O)O2)c(=O)n1 |  |  | fluorescence | >0.5 µM
CCN1c2ncc(CN(C)c3ccccc3)cc2C(=O)N(C)c2ccc(Cl)nc21 | WT |  | nucleotide incorporation / radiometric | <1 µM
Cc1cn([C@H]2C[C@H](N=[N+]=[N-])[C@@H](COP(=O)(O)OP(=O)(O)CP(=O)(O)O)O2)c(=O)[nH]c1=O | IIIB |  | nucleotide incorporation | 7.9 µM
Nc1ncnc2c1ncn2[C@@H]1O[C@H](COP(=O)(O)OP(=O)(O)OP(=O)(O)O)C[C@@H]1F |  | RT-Q151M | nucleotide incorporation | 115 µM
COc1ccc(S(=O)(=O)N2CCN(C(=O)c3cc(O)c(O)c(O)c3)CC2)cc1 | BH10 |  | ELISA / nucleotide incorporation | >50 µM
Cc1cccc(N2C(=O)CSC2c2cccnc2)n1 |  |  | ELISA | >10 µg/mL
COc1cc(-c2cc(=O)c3c(O)cc(O)cc3o2)c(OC)c(OC)c1OC |  |  | nucleotide incorporation / radiometric | >200 µg/mL
CC(Cn1c(=S)[nH]c2ccccc21)NCc1ccccc1 |  |  | RT activity | >100 µg/mL
CC(C)c1c(COC(N)=O)cn(Cc2ccncc2)c1Sc1cc(Cl)cc(Cl)c1 |  |  | RT activity | 0.7 µM
CCc1cc(CCc2nc3c(Cl)ccc(Cl)c3o2)c(=O)[nH]c1C |  | RT-Y181C | nucleotide incorporation | 0.21 µM
CCN1c2ncc(COc3cc[n+]([O-])c(C)c3)cc2C(=O)N(C)c2ccc(Cl)nc21 |  | RT-Y181C | nucleotide incorporation / radiometric | <1 µM
Cc1c(Sc2ccccc2)n(COCCO)c(=O)[nH]c1=O |  |  | nucleotide incorporation | 49 µM
O=C1CSC(c2ccnc3ccccc23)N1Cc1ccco1 |  |  | ELISA | >10 µg/mL

The last 4 rows once more:

SMILES | strain | changes | method | value
CCc1cc(CCc2nc3c(Cl)ccc(Cl)c3o2)c(=O)[nH]c1C |  | RT-Y181C | nucleotide incorporation | 0.21 µM
CCN1c2ncc(COc3cc[n+]([O-])c(C)c3)cc2C(=O)N(C)c2ccc(Cl)nc21 |  | RT-Y181C | nucleotide incorporation / radiometric | <1 µM
Cc1c(Sc2ccccc2)n(COCCO)c(=O)[nH]c1=O |  |  | nucleotide incorporation | 49 µM
O=C1CSC(c2ccnc3ccccc23)N1Cc1ccco1 |  |  | ELISA | >10 µg/mL